The record followed here is EP0479888B1, “IMPROVED BUILDER-CONTAINING AQUEOUS CLEANER/DEGREASER MICROEMULSION COMPOSITIONS” (BUCKEYE INTERNATIONAL, INC., priority 1989, dated 1991).

A short description of the data set: aqueous solubility of organic solvents. Conditions: water.

As to `CCCCOP(=O)(OCCCC)OCCCC`, the “aqueous ambient temperature solubility” value was 0.6 wt.%.
